PubChem BioAssay AID624099 – ICCB-Longwood, 2012

- Assay: 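Host factors E2 relies on to silence an HPV18 LCR reporter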 (primary screen)
- System: human C33A cervical carcinoma cells (HPV-negative) stably expressing BPV1 E2 and an HPV18 LCR luciferase reporter
- Reagent: siRNA pool against human genes, 40 nM
- Time to read-out: 72 h
- Measured: 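HPV18 LCR reporter light per well, converted to plate-wise z-scores that exclude control wells, and averaged over triplicate plates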
- Reading the numbers: mean z-score and z-score: higher = stronger reporter signal, weaker E2 silencing
- Call rule: 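Hit if mean z-score reaches 2 and two or more of three replicate z-scores also reach 2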
The deposit covers about 21,000 reagents; shown is a random part of them. Over the whole deposit, 497 (2.4%) got an active call. 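Higher z means weaker E2 silencing; only reporter increases were scored, and knock-downs that hurt cell survival may mask genuine repressor factors.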 Unmarked entries are inactive.

target,PubChem SID,mean z-score,"z-score, replicate A","z-score, replicate B","z-score, replicate C"
CYTH4 (cytohesin 4),SID134317900,-0.7,-0.52,-0.8,-0.79
ABCG4 (ATP binding cassette subfamily G member 4),SID134313760,-1.53,-1.6,-1.38,-1.6
MTARC2 (mitochondrial amidoxime reducing component 2),SID134322534,0.58,0.88,0.4,0.45
ARPP21 (cAMP regulated phosphoprotein 21),SID134320102,-0.84,-0.95,-0.93,-0.65
ARPP21 (cAMP regulated phosphoprotein 21),SID134327318,0.39,0.34,0.29,0.54
LINC00486 (long independently transcribed non-coding RNA 486),SID134327159,0.86,0.85,1.09,0.64
PRKCH (protein kinase C eta),SID56478829,-0.2,-0.33,-0.06,-0.22
ING1 (inhibitor of growth family member 1),SID134311856,-0.97,-0.75,-1,-1.14
MACROH2A1 (macroH2A.1 histone),SID134316273,1.25,1.09,0.98,1.68
LINC00475 (long independently transcribed non-coding RNA 475),SID134328143,1.22,1.55,0.97,1.14
GNL3L (G protein nucleolar 3 like),SID134319769,-1.26,-1.49,-1.73,-0.58
TBC1D10A (TBC1 domain family member 10A),SID134318858,-0.29,-0.6,-0.16,-0.1
SASH1 (SAM and SH3 domain containing 1),SID134318234,1.19,1.33,1.02,1.21
LRRC4C (leucine rich repeat containing 4C),SID134326650,0.16,0.03,0.05,0.39
TBC1D20 (TBC1 domain family member 20),SID134319994,-1.35,-1.23,-1.47,-1.33
CFAP221 (cilia and flagella associated protein 221),SID134325403,-0.11,-0.29,-0.16,0.11
CELA1 (chymotrypsin like elastase 1),SID134311287,0.57,0.72,0.63,0.36
GTF3C4 (general transcription factor IIIC subunit 4),SID134323624,0.28,0.01,0.46,0.36
ETF1 (eukaryotic translation termination factor 1),SID134323603,-1.44,-1.56,-1.42,-1.34
KLHDC1 (kelch domain containing 1),SID134320646,-0.31,-0.45,-0.04,-0.44
DACT3 (dishevelled binding antagonist of beta catenin 3),SID134319719,0.67,0.91,0.97,0.12
RP1 (RP1 axonemal microtubule associated),SID134316552,1.54,1.21,1.63,1.79
LINC01566 (long independently transcribed non-coding RNA 1566),SID134328691,1.39,1.52,1.37,1.28
KRTAP13-2 (keratin associated protein 13-2),SID134329004,-0.96,-0.88,-1.14,-0.87
WDR83 (WD repeat domain 83),SID134318947,-0.15,-0.42,-0.06,0.01
ACTR2P2 (ACTR2 pseudogene 2),SID134325909,0.61,0.4,0.31,1.11
CLIC4 (CLIC family member 4),SID134317773,0.33,0.32,0.26,0.4
LOC729645 (retired record),SID134325907,0.36,-0.01,0.49,0.61
VPS50 (VPS50 subunit of EARP/GARPII complex),SID134317168,0.23,0.41,-0.01,0.3
ASPH (aspartate beta-hydroxylase),SID134310371,1.53,1.25,1.35,1.99
C2CD4C (C2 calcium dependent domain containing 4C),SID134325872,-1.97,-1.83,-2.15,-1.94
BRIP1 (BRCA1 interacting DNA helicase 1),SID134315086,0.65,0.64,0.68,0.64
LRATD1 (LRAT domain containing 1),SID134319944,0.84,0.94,0.92,0.66
DNMT3A (DNA methyltransferase 3 alpha),SID134311947,0.43,0.77,0.54,-0.02
PVALB (parvalbumin),SID134323474,-0.8,-0.75,-1.05,-0.6
C6orf62 (chromosome 6 open reading frame 62),SID134319734,0.35,0.28,0.2,0.59
ZNF2 (zinc finger protein 2),SID134318310,0.58,0.51,0.59,0.63
KLHL30 (kelch like family member 30),SID134326861,-0.67,-0.33,-0.75,-0.93
PRKAB1 (protein kinase AMP-activated non-catalytic subunit beta 1),SID134312708,-0.54,-0.68,-0.3,-0.63
MRRFP1 (mitochondrial ribosome recycling factor pseudogene 1),SID134326244,0.39,0.41,0.4,0.36
GDF2 (growth differentiation factor 2),SID134317464,-0.33,-0.48,-0.46,-0.04
MRPS10 (mitochondrial ribosomal protein S10),SID134317574,-0.06,-0.07,-0.28,0.18
"DPM1 (dolichyl-phosphate mannosyltransferase subunit 1, catalytic)",SID134315864,-0.12,0.24,-0.55,-0.06
INSRR (insulin receptor related receptor),SID56479015,0.3,0.42,0.31,0.16
IGFL1 (IGF like family member 1),SID134326848,0.12,-0.21,0.54,0.03
AGBL4 (AGBL carboxypeptidase 4),SID134319061,0.42,0.48,0.59,0.18
ZFAND3 (zinc finger AN1-type containing 3),SID134313437,2.1 (active),2.53,2.06,1.7
LOC387702 (retired record),SID134328154,0.32,0.77,0.16,0.04
GFI1 (growth factor independent 1 transcriptional repressor),SID134323702,-1.4,-1.91,-1.1,-1.19
NME7 (NME/NM23 family member 7),SID56479121,0.78,0.55,0.58,1.2
AP5Z1 (adaptor related protein complex 5 subunit zeta 1),SID134326305,-0.5,-0.42,-0.43,-0.65
AGAP12P,SID134328175,2.63 (active),2.3,3.02,2.58
SAMD3 (sterile alpha motif domain containing 3),SID134319492,0.77,0.84,0.83,0.65
LCMT1 (leucine carboxyl methyltransferase 1),SID134314172,0.08,0.16,0.18,-0.1
ESCO2,SID134326379,-0.9,-0.94,-1.01,-0.75
MSTO1 (misato mitochondrial distribution and morphology regulator 1),SID134324775,-0.87,-1.11,-0.94,-0.55
HIGD1A (HIG1 hypoxia inducible domain family member 1A),SID134323970,1.17,2.04,0.56,0.91

A run of entries from the list above:
target,PubChem SID,mean z-score,"z-score, replicate A","z-score, replicate B","z-score, replicate C"
LOC387702 (retired record),SID134328154,0.32,0.77,0.16,0.04
GFI1 (growth factor independent 1 transcriptional repressor),SID134323702,-1.4,-1.91,-1.1,-1.19
NME7 (NME/NM23 family member 7),SID56479121,0.78,0.55,0.58,1.2
